Laboratory results as given in patent US11702663B2, “Bacteria-based protein delivery” (Universitaet Basel, priority 2015, dated 2023).

Test system: HeLa cells
Test: Western blotting of T3SS translocated proteins from infected cells (digitonin lysis)
Assay type: cell-based, human
Settings: digitonin lysed HeLa cells, 1 h, MOI of 100, anti-Bid western blot
Text: Western blotting of T3SS translocated proteins from infected cells. HeLa cells in 6-well plates were infected at an MOI of 100 as described above. In case of coinfection with the TEV protease translocating Y. enterocolitica strain, the OD600 of the strains was set and the two bacterial suspensions were mixed in a tube at a ratio of 1:1 (if not otherwise indicated) before addition to the cells. At the end of the infection, the cells were washed twice with ice-cold PBS and collected by scraping in a small volume of ice-cold PBS. After centrifugation (16 000 rcf, 5 min, 4° C.) the pellet was dissolved in 0.002% digitonin supplemented with a protease inhibitor cocktail (Roche complete, Roche). The dissolved pellets were incubated for 5 minutes on ice and then centrifuged (16 000 rcf, 25 min, 4° C.). Supernatants were collected and analyzed for total protein content by […] (Pierce) before SDS PAGE and Western blotting using an anti-Myc (Santa Cruz, 9E11) or anti-Ink4C (Cell Signaling) antibody.

| Substance | translocated protein amount relative to endogenous Bid [fold] | translocated protein amount compared to endogenous Bid |
| --- | --- | --- |
| YopE1-138-BID: YopE1-138 fusion to human BH3 interacting-domain death agonist (BID) | 2.5 | – |
| YopE1-138-tBID: YopE1-138 fusion to human truncated BID (tBID) | – | reached about endogenous Bid levels |
